Data from PMC11298430, “Synthesis and In vitro evaluation of bichalcones as novel anti-toxoplasma agents” (Frontiers in Chemistry, 2024).

System: human fibroblasts Hs27
Test: MTT cytotoxicity assay
Assay type: cell-based
Conditions: ratio of CC50/IC50 (Hs27 / T. gondii)
Experimental: The MTT [3-(4, 5-dimethylthiazole-2-yl)-2, 5-diphenyltetrazolium bromide] reduction assay ([Mosmann, 1983]) was used to quantify the cytotoxic effects of the examined chalcones and bichalcones on the host cells. To avoid edge effects, only the inner 60 wells of each plate were used. Briefly, 5 × 10^4 Hs27 cells per well were cultured in 96-well microtiter plates in Iscove’s modified Dulbecco’s medium (IMDM, Gibco–Thermo Fisher Scientific, Braunschweig, Germany, #12440053) with a volume of 100 µL per well and incubated overnight at 37°C until confluence. Different concentrations of the compounds (ranging from 200 μM to 0.09 µM) were then added to the Hs27 cells. Controls included untreated Hs27 cells treated with DMSO, and cells treated with staurosporine (0.031, 0.062, 0.125, 0.25, 0.5, 1 µM) (Merck, Darmstadt, Germany, #S4400), a natural product known for its potent activity as apoptosis inducer ([Belmokhtar et al., 2001]). After 24 h of incubation, the culture media were replaced with 100 µL of Dulbecco’s Modified Eagle Medium (DMEM) medium without red phenol (Gibco-Thermo Fisher Scientific, Braunschweig, Germany, #21041025) plus 10% heat-inactivated fetal bovine serum (FBS Standard, South America origin, fetal bovine serum, […] sterile filtered, PAN-Biotech, Aidenbach, Germany, #P30-3,306), and […] 2-mercaptoethanol (Gibco-Thermo Fisher Scientific, Braunschweig, Germany, #21985023). The experiment was performed following the manufacturer’s instructions (CyQuant MTT Cell Viability Assay Kit, Thermo Fisher Scientific, Braunschweig, Germany, #V-13154). Optical density (O.D.) was measured at 570 nm using a microplate reader (TECAN Sunrise, Männedorf, Switzerland). The half-maximal cytotoxic concentration (CC50) values of each compound against Hs27 cells relative to DMSO-treated samples were determined using GraphPad PRISM™ statistical software (version 9.5.1; San Diego, CA). In addition, the selectivity index (SI) of each compound was calculated from the ratio of CC50/IC50.

Row | Compound | SI
1 | COc1cc(C)c(-c2c(C)cc(OC)c(C(=O)/C=C/c3ccccc3)c2O)c(O)c1C(=O)/C=C/c1ccccc1 (racemic) [2ab] | > 6,994
2 | COc1ccc(/C=C/C(=O)c2c(O)cc(C)cc2OC)cc1 [1aa] | 8.2
3 | COc1cc(C)cc(O)c1C(=O)/C=C/c1ccc(Br)cc1 [1ae] | 18
4 | COc1cc(C)cc(O)c1C(=O)/C=C/c1cccc(Br)c1 [1af] | 21.7
5 | COc1cc(O)c(C(=O)/C=C/c2ccccc2)c(OC)c1 [1bb] | 14.6
6 | COc1cc(O)c(C(=O)/C=C/c2cccc(Br)c2)c(OC)c1 [1bf] | >18
7 | COc1ccc(/C=C/C(=O)c2c(OC)cc(C)c(-c3c(C)cc(OC)c(C(=O)/C=C/c4ccc(OC)cc4)c3O)c2O)cc1 [2aa] | >30
8 | COc1cc(C)c(-c2c(C)cc(OC)c(C(=O)/C=C/c3ccc(C(F)(F)F)cc3)c2O)c(O)c1C(=O)/C=C/c1ccc(C(F)(F)F)cc1 [2ad] | >8
9 | COc1cc(C)c(-c2c(C)cc(OC)c(C(=O)/C=C/c3ccc(Br)cc3)c2O)c(O)c1C(=O)/C=C/c1ccc(Br)cc1 [2ae] | >25
10 | COc1cc(C)c(-c2c(C)cc(OC)c(C(=O)/C=C/c3cccc(Br)c3)c2O)c(O)c1C(=O)/C=C/c1cccc(Br)c1 [2af] | >7
11 | COc1cc(C)c(-c2c(C)cc(OC)c(C(=O)/C=C/c3ccccc3Br)c2O)c(O)c1C(=O)/C=C/c1ccccc1Br [2ag] | >11
12 | COc1cc(OC)c(-c2c(OC)cc(OC)c(C(=O)/C=C/c3ccccc3)c2O)c(O)c1C(=O)/C=C/c1ccccc1 [2bb] | >21
13 | COc1cc(OC)c(-c2c(OC)cc(OC)c(C(=O)/C=C/c3ccc(C(F)(F)F)cc3)c2O)c(O)c1C(=O)/C=C/c1ccc(C(F)(F)F)cc1 [2bd] | >65
14 | COc1cc(OC)c(-c2c(OC)cc(OC)c(C(=O)/C=C/c3ccc(Br)cc3)c2O)c(O)c1C(=O)/C=C/c1ccc(Br)cc1 [2be] | >23
15 | COc1cc(OC)c(-c2c(OC)cc(OC)c(C(=O)/C=C/c3cccc(Br)c3)c2O)c(O)c1C(=O)/C=C/c1cccc(Br)c1 [2bf] | >16
